The test concerns S. aureus. Kind of test: Microbicidal plate assay, pEPO with amine additives, aged 0 or 5 minutes with H2O2 (Example 7). To be noted: Plate 4 versus Plate 1, aged 0 min; 3 mM additive. Type of test: cell-based, Staphylococcus aureus.

Only a part of the results on these compounds is given; other tests are left out.

With `OCCN(CCO)CCO`, the “effect of additive on pEPO bioactivity” value is listed as “inhibitory”.
